Some compounds share one wording; it may come from a single statement. Some results are limits rather than exact numbers.

The data set can be described thus: 1H NMR detection and quantification of ddhNs in urine, SARS-CoV-2 (+) cohort vs controls. On the set-up: species or system human. The following applies: for normalized urinary concentration: urine of acute phase SARS-CoV-2 patients, normalised to creatinine; for detectability in standard urine 1H NMR acquisition: ~32 scans, 600 MHz, unfractionated urine.

Regarding `Nc1ccn([C@@H]2OC(CO)=C[C@H]2O)c(=O)n1` [ddhC (1), 3′-deoxy-3′,4′-didehydro-cytidine], the normalized urinary concentration is more than 20.0 μM/mM creatinine.

For `C[S+](CCC(N)C(=O)O)CC1=C[C@@H](O)[C@H](n2ccc(N)nc2=O)O1` (stereo partly shown) [ddhC-5′Met (8), 3′,5′-dideoxy-3′,4′-didehydrocytidine-5′-Methionine], the “detectability in standard urine 1H NMR acquisition” value (“detectability” for short) is reported as “below the limit of detection”. The compound `Nc1ccn([C@@H]2OC(C(=O)O)=C[C@H]2O)c(=O)n1` [ddhC-5′CA (2), 3′,5′-dideoxy-3′,4′-didehydrocytidine-5′-carboxylic acid] displayed a normalized urinary concentration of approximately 10.0 μM/mM creatinine. Regarding `CSCC1=C[C@@H](O)[C@H](n2ccc(N)nc2=O)O1` [ddhC-5′MeS (7), 3′,5′-dideoxy-3′,4′-didehydrocytidine-5′-thiomethyl], the “detectability” value is listed as “below the limit of detection”. `O=c1ccn([C@@H]2OC(CO)=C[C@H]2O)c(=O)[nH]1` [ddhU (3), 3′-deoxy-3′,4′-didehydro-uridine] yielded a normalized urinary concentration of more than 10.0 μM/mM creatinine. Take `Nc1ccn([C@@H]2OC(CSCC[C@H](N)C(=O)O)=C[C@H]2O)c(=O)n1` [ddhC-5′Hcy (4), 3′,5′-dideoxy-3′,4′-didehydrocytidine-5′-homocysteine]: the normalized urinary concentration entry was “up to 7.0 μM/mM creatinine”.

Consider `C[S+]([O-])CC1=C[C@@H](O)[C@H](n2ccc(N)nc2=O)O1` (stereo partly shown) [ddhC-5′SO (6), 3′,5′-dideoxy-3′,4′-didehydrocytidine-5′-thiomethylsulfoxide], for which the “detectability” value is “below the limit of detection”.

Source of the values: patent publication US20240352542A1, “MEANS AND METHODS FOR DIAGNOSING A VIRAL INFECTION OR A DISEASE ASSOCIATED THEREWITH” (Bruker Biospin GmbH & Co. KG, priority 2023, published 2024).
